Results of unrelated studies side by side (data: NIAID ChemDB).

All rows: whole-cell or culture tests; organism: HIV-1

Blank or dashed fields: not listed here. Neighbouring rows are from separate reports. Two numbers with a dash give a range or band. ECn is the concentration giving n% inhibition of infection, replication or growth.

compound	mutations	strain or isolate	read by	cells	measure	result
Cc1cc(/C=C/C#N)cc(C)c1Oc1nc(NC2CCN(Cc3ccc([N+](=O)[O-])cc3)CC2)nc2ccsc12	NNRTI-resistant (RT Y181C)	IIIB	MTT	MT-4	EC50	0.0307 µM
CC(C)C1=C2[C@H]3CC[C@@H]4[C@@]5(C)CC[C@H](OC(=O)[C@H]6C[C@@H](C(=O)O)C6(C)C)C(C)(C)[C@@H]5CC[C@@]4(C)[C@]3(C)CC[C@@]2(CCNCc2ccc(N3CCC(N4CCOCC4)CC3)cc2)CC1=O		92HT599	p24 / ELISA	MT-2	EC50	<1 µM
Cc1cc(C#N)cc(C)c1Oc1nc(NC2CCC(NCc3ccc([N+](=O)[O-])cc3)CC2)nc2ccsc12		RES056	MTT	MT-4	EC50	≥5.44 µM
Cc1ncc(-c2ccc(OCC3CCCCCC3)cn2)c(N2CCC(C)(C)CC2)c1[C@H](OC(C)(C)C)C(=O)O		NL4-3	luminescence	MT-2	EC50	0.0023 µM
CC(=O)c1c(C)nc(-c2ccccc2)nc1NC(=O)c1ccccc1		B-HXB2	GFP / fluorescence	HeLa	EC50	0.24 µM
Cc1ncc(-c2ccc(OCCOC(C)(C)C)cn2)c(N2CCC(C)(C)CC2)c1[C@H](OC(C)(C)C)C(=O)O		NL4-3	luminescence	MT-2	EC50	0.0018 µM
COc1ccnc2[nH]cc(C(=O)C(=O)N3C4CCCC3CN(C(=O)c3ccccc3)C4)c12		PVO	luciferase	TZM-bl	EC99	41 µM
CC(C)CN(CC(O)CCN1CSC[C@@H]1C(=O)NC(C)(C)C)S(=O)(=O)c1ccccc1		IIIB	p24	CEM	EC90	1 µM
Cc1cc(/C=C/C#N)cc(C)c1Oc1nc(NC2CCN(Cc3cccc(Br)c3)CC2)nc2ccsc12	NNRTI-resistant (RT Y188L)	IIIB	MTT	MT-4	EC50	0.165 µM
O=C(COc1ccc(Cl)cc1C(=O)c1ccco1)Nc1ccc2cn[nH]c2c1		WTRVA	β-galactosidase	HeLa + HELA CD4+	EC50	<0.01 µM
CC(C)CN(CC(O)CN(CC(C)C)S(=O)(=O)c1ccccc1)S(=O)(=O)c1ccccc1		IIIB	p24	CEM	EC50	<1 µM
Cc1cc(/C=C/C#N)cc(C)c1Oc1nc(NC2CCN(Cc3ccccc3Br)CC2)nc2ccsc12	NNRTI-resistant (RT F227L V106A)	IIIB	MTT	MT-4	EC50	0.0895 µM
Cc1ccc(N(C)C(=O)[C@H](Cc2cc(F)cc(F)c2)NC(=O)c2ccc(F)c(C(=O)N[C@@H](Cc3cc(F)cc(F)c3)C(=O)N(C)c3ccc(C)nc3)c2)cn1		NL4-3	luciferase	MT-2	EC50	0.19 µM
Cc1cc(/C=C/C#N)cc(C)c1Oc1nc(NC2CCN(Cc3ccc(Br)cc3)CC2)nc2ccsc12	NNRTI-resistant (RT Y181C)	IIIB	MTT	MT-4	EC50	0.127 µM
O=C(c1ccccc1)N(CCc1ccccc1)C[C@H](O)CN(CC1CCCC1)S(=O)(=O)CC1CCOC1		IIIB	p24	CEM	EC90	1 µM
CCc1ccc(-c2c(C(OC3(CC)CCC3)C(=O)O)c(C)nc3ccc(Cl)cc23)cc1			luciferase / reporter gene	C8166	EC50	<20 µM
COc1ccc(N(C)C(=O)[C@H](Cc2ccccc2)NC(=O)Cn2c(=O)n(CC(=O)N[C@@H](Cc3ccccc3)C(=O)N(C)c3ccc(OC)cc3)c3cc(NC(C)=O)ccc32)cc1		NL4-3	luciferase	MT-2	EC50	2.6 µM
Cc1cc(OCCCN2CCOCC2)ccc1NC(=O)COc1ccc(Cl)cc1C(=O)c1cccs1		WTRVA	β-galactosidase	HeLa + HELA CD4+	EC50	0.011–0.1 µM
O=C1c2c(O)c(=O)n(C3CCOCC3)c(=O)n2CCN1Cc1ccc(F)cc1			p24	MT-4	EC95	<10 µM
CN(C(=O)[C@H](Cc1cc(F)cc(F)c1)NC(=O)c1ccc(F)c(C(=O)N[C@@H](Cc2cc(F)cc(F)c2)C(=O)N(C)c2ccc3snnc3c2)c1)c1ccc2snnc2c1		NL4-3	luciferase	MT-2	EC50	0.34 µM
Cc1cc2cn[nH]c2cc1NC(=O)COc1ccc(Cl)cc1C(=O)c1cccc(C#N)c1	RT-Y181C	Nevirapine-resistant (RT Y181C)	cytopathic effect / propidium iodide	MT-4	EC50	<0.01 µM
Cc1ncc(-c2ccc(N(C)CCOc3cc(F)cc(F)c3)nc2)c(N2CCC(C)(C)CC2)c1[C@H](OC(C)(C)C)C(=O)O		NL4-3	luminescence	MT-2	EC50	0.0032 µM
CC(C)C1=C2[C@H]3CC[C@@H]4[C@@]5(C)CC[C@H](OC(=O)[C@H]6C[C@@H](C(=O)O)C6(C)C)C(C)(C)[C@@H]5CC[C@@]4(C)[C@]3(C)CC[C@@]2(CC(=O)NCc2ccc(CN3CCN(C)CC3)cc2)CC1=O		92HT599	p24 / ELISA	MT-2	EC50	<1 µM
CCCc1ccc(-c2c(C(O[C@H](C)CC)C(=O)O)c(C)nc3ccc(Cl)cc23)cc1			luciferase / reporter gene	C8166	EC50	<20 µM
CC1(C)CC=C(c2cn(-c3nccc(C(=O)NC4CCC(N5CC6CCC(C5)O6)CC4)n3)c3ccc(F)c([C@H](OC(C)(C)C)C(=O)O)c23)CC1	G140S/Q148H/N155H	NL4-3	luminescence	MT-4	EC50	0.0053 µM
CN(C(=O)[C@H](Cc1ccccc1)NC(=O)NS(=O)(=O)N[C@@H](Cc1ccccc1)C(=O)N(C)c1ccccc1)c1ccccc1		NL4-3	luciferase	MT-2	EC50	0.97 µM
COc1ccnc2[nH]cc(C(=O)C(=O)N3C4CC3CN(C(=O)c3ccccc3)C4)c12		AC10	luciferase	TZM-bl	EC90	250 µM
CC(C)C1=C2[C@H]3CC[C@@H]4[C@@]5(C)CC[C@H](OC(=O)[C@H]6C[C@@H](C(=O)O)C6(C)C)C(C)(C)[C@@H]5CC[C@@]4(C)[C@]3(C)CC[C@@]2(CC(=O)NCC(C)(NC(=O)c2ccc(Cl)cc2)C(C)O)CC1=O		92HT599	p24 / ELISA	MT-2	EC50	<1 µM
CCN1c2ncc(CCOc3ccc(-n4cc(C(=O)O)nn4)cc3C)cc2C(=O)N(C)c2cccnc21	RT-K103N Y181C		p24	C8166	EC50	>0.05 µM
CN(C(=O)[C@H](Cc1cc(F)cc(F)c1)NC(=O)NS(=O)(=O)N[C@@H](Cc1cc(F)cc(F)c1)C(=O)N(C)c1ccc(OC(F)(F)F)cc1)c1ccc(OC(F)(F)F)cc1		NL4-3	luciferase	MT-2	EC50	0.01 µM
CN1c2ccccc2C2C1C=C(C#N)C(=O)N2c1ccc([N+](=O)[O-])cc1		AE-CMU06	GFP / fluorescence	HeLa	EC50	0.07 µM
COc1ccc(N(C)C(=O)[C@H](Cc2ccccc2)NC(=O)CCSCCC(=O)N[C@@H](Cc2ccccc2)C(=O)N(C)c2ccc(OC)cc2)cc1		NL4-3	luciferase	MT-2	EC50	0.1 µM
CCc1ccc(-c2c(C(O[C@@H](C)CC)C(=O)O)c(C)nc3ccc(Cl)cc23)cc1			luciferase / reporter gene	C8166	EC50	<20 µM
Cc1ncc(-c2cnc(SCCc3ccc(F)cc3)c(F)c2)c(N2CCC(C)(C)CC2)c1[C@H](OC(C)(C)C)C(=O)O		NL4-3	luminescence	MT-2	EC50	0.0089 µM
COc1ccc(N(C)C(=O)[C@H](Cc2ccccc2)NC(=O)NS(=O)(=O)N[C@@H](Cc2ccccc2)C(=O)N(C)c2ccc3c(c2)OCO3)cc1		NL4-3	luciferase	MT-2	EC50	0.08 µM
CCN1c2ncc(CCOc3ccc(-c4ccc(C(=O)O)cc4)c(Cl)c3)cc2C(=O)N(C)c2cccnc21		IIIB	p24	C8166	EC50	0.01–0.05 µM
CC(C)CN(C[C@H](O)C[C@H](Cc1ccccc1)CN1CSCC1C(=O)NC(C)(C)C)S(=O)(=O)c1ccccc1		IIIB	p24	CEM	EC50	<1 µM
O=C1c2c(O)c(=O)nc(NCc3ccccc3)n2CCN1Cc1ccc(F)cc1			p24	MT-4	EC95	<10 µM
CC(C)C1=C2[C@H]3CC[C@@H]4[C@@]5(C)CC[C@H](OC(=O)[C@H]6C[C@@H](C(=O)O)C6(C)C)C(C)(C)[C@@H]5CC[C@@]4(C)[C@]3(C)CC[C@@]2([C@@H](O)CNCC(C)(C)NC(=O)c2ccc(Cl)cc2OC2CCNCC2)CC1=O		92HT599	p24 / ELISA	MT-2	EC50	<1 µM
Nc1cccc(S(=O)(=O)N(CC2CCCC2)C[C@@H](O)CN(CCc2ccccc2)C(=O)OC2COCOC2)c1		IIIB	p24	CEM	EC90	0.1 µM
CCC(=O)c1ccc(F)c([C@@H]2C[C@@H]2NC(=O)Nc2ccc(C#N)cn2)c1O	NNRTI-resistant (RT E138K)	LAI	β-galactosidase / luminescence	TZM-bl	EC50	0.00189 µM
C/C=C/CSc1cc(NC(=S)c2ccsc2C)ccc1Cl	RT-V106I	NL4-3	p24	CEM + CEM-SS	EC50	2.7 µM
CCC[C@H](C(=O)O)c1c(-c2ccc(Cl)cc2)c2cc(Cl)ccc2n(CCNC(=O)OC(C)(C)C)c1=O			luciferase / reporter gene	C8166	EC50	<20 µM
CCN1c2ncc(CCOc3ccc(-c4cc(C(=O)O)c(C)o4)cc3)cc2C(=O)N(C)c2cccnc21	RT-K103N Y181C		p24	C8166	EC50	>0.05 µM
COC(C(=O)O)c1c(C)nc2ccccc2c1-c1ccc(Cl)cc1			luciferase / reporter gene	C8166	EC50	<20 µM
Cc1cc(/C=C/C#N)cc(C)c1Oc1nc(NC2CCN(Cc3ccncc3)CC2)nc2ccsc12	NNRTI-resistant (RT K103N)	IIIB	MTT	MT-4	EC50	0.00556 µM
COP(=O)(c1cc(C)cc(CCC#N)c1)c1c(C(N)=O)[nH]c2ccc(Cl)c(F)c12		BH10	cytopathic effect	MT-4	EC50	0.0003 µM
Cc1nc2ccc(Br)cc2c(-c2ccc(Cl)cc2)c1[C@H](OC(C)(C)C)C(=O)O			luciferase / reporter gene	C8166	EC50	<20 µM
Cc1cc(S(N)(=O)=O)ccc1NC(=O)COc1ccc(Cl)cc1C(=O)c1cc(F)cc(F)c1	RT-Y181C	HXB2	β-galactosidase	HeLa + HELA CD4+	EC50	<0.01 µM
CC(C)n1c(=O)c(O)c2n(c1=O)C(CCN(C)S(C)(=O)=O)CN(Cc1ccc(F)cc1)C2=O			p24	MT-4	EC50	<10 µM
Cc1cc(C#N)cc(C(=O)c2cc(Cl)ccc2OCC(=O)Nc2ccc(OCCCN3CC=CC3)cc2C)c1	RT-P236L	HXB2	β-galactosidase	HeLa + HELA CD4+	EC50	<0.01 µM
CC(C)n1c(=O)c(O)c2n(c1=O)C(CCO)CN(Cc1ccc(F)cc1)C2=O			p24	MT-4	EC95	<10 µM
COc1ccc(S(=O)(=O)N(CC(C)C)C[C@@H](O)CCN(CC2CCCC2)S(=O)(=O)c2ccc3nc[nH]c3c2)cc1		IIIB	p24	CEM	EC50	<1 µM
Cc1nc2ccccc2c(-c2cc(F)c3c(c2C)CCCO3)c1[C@H](OC(C)(C)C)C(=O)O	E138K/Q148K	NL4-3	luminescence	MT-4	EC50	0.017 µM
Cc1cc(OCCCS(N)(=O)=O)ccc1NC(=O)COc1ccc(Cl)cc1C(=O)c1cc(F)cc(C(F)(F)F)c1	RT-Y188C	HXB2	β-galactosidase	HeLa + HELA CD4+	EC50	<0.01 µM
CCOc1ccc(-c2c(C(OC(C)C)C(=O)O)c(C)nc3ccc(Cl)cc23)cc1F			luciferase / reporter gene	C8166	EC50	<20 µM
Cc1cc(S(N)(=O)=O)ccc1NC(=O)COc1ccc(Cl)cc1C(=O)c1cc(F)cc(C#N)c1	RT-L100I	HXB2	β-galactosidase	HeLa + HELA CD4+	EC50	<0.01 µM
CC(C)[C@H](NC(=O)OCc1ccccn1)C(=O)N[C@@H](Cc1ccccc1)[C@@H](O)C[C@H](Cc1ccccc1)NC(=O)OCc1cccnc1	PR-V82T	NL4-3	p24	MT-4	EC50	<1.5 µM
Cc1ncc(-c2ccc(OCC3CC3)cn2)c(N2CCC(C)(C)CC2)c1[C@H](OC(C)C)C(=O)O		NL4-3	luminescence	MT-2	EC50	0.01 µM
CCN1c2ncccc2NC(=O)c2cc(CCOc3ccc(-c4ccc[n+]([O-])c4)cc3C)cnc21	RT-K103N Y181C		p24	C8166	EC50	0.01–0.05 µM
Cc1cc(S(N)(=O)=O)ccc1NC(=O)COc1ccc(Cl)cc1C(=O)c1cccc(C#N)c1	RT-K103N	HXB2	β-galactosidase	HeLa + HELA CD4+	EC50	<0.01 µM
Cc1ncc(-c2cnc(OCCOc3ccc(F)cc3Cl)c(F)c2)c(N2CCC(C)(C)CC2)c1[C@H](OC(C)(C)C)C(=O)O		NL4-3	luminescence	MT-2	EC50	0.0012 µM
CC(C)C1=C2[C@H]3CC[C@@H]4[C@@]5(C)CC[C@H](OC(=O)[C@H]6C[C@@H](C(=O)O)C6(C)C)C(C)(C)[C@@H]5CC[C@@]4(C)[C@]3(C)CC[C@@]2(CC(=O)NC[C@@H](N)C(C)C)CC1=O		92HT599	p24 / ELISA	MT-2	EC50	<1 µM
COc1ccc(N(CCF)C(=O)[C@H](Cc2cc(F)cc(F)c2)NC(=O)Cn2c(=O)n(CC(=O)N[C@@H](Cc3cc(F)cc(F)c3)C(=O)N(CCF)c3ccc(OC)cc3)c3ccccc32)cc1		NL4-3	luciferase	MT-2	EC50	0.34 µM
CC(C)C1=C2[C@H]3CC[C@@H]4[C@@]5(C)CC[C@H](OC(=O)[C@H]6C[C@@H](C(=O)O)C6(C)C)C(C)(C)[C@@H]5CC[C@@]4(C)[C@]3(C)CC[C@@]2(CCNC(=O)CN2CCOCC2)CC1=O		92HT599	p24 / ELISA	MT-2	EC50	<1 µM
Cc1cc(C#N)cc(C(=O)c2cc(Cl)ccc2OCC(=O)Nc2ccc(S(N)(=O)=O)cc2C)c1	RT-Y181C	HXB2	β-galactosidase	HeLa + HELA CD4+	EC50	<0.01 µM